## Mutational scan of HIV-1 Vif (LAI) in cells with APOBEC3G

Protein: Vif of HIV-1 LAI (a laboratory-adapted subtype B strain). Residues 12-115 were scanned and are shown below; the first letter is residue 12.
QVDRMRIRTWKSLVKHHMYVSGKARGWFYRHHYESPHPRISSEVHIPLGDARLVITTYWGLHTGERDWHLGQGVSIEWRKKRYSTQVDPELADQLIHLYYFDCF

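A pool of vif mutants was passaged twice, 72 h each, on SupT1 cells that express APOBEC3G. Frequencies after the second round, in three biological replicates, were compared with the merged pool after the first round. Changes do not touch integrase, since the pol overlap was removed.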

The score is log2 enrichment against the wild-type codon: higher is better tolerated, lower is depleted.
A change reads original residue, position, new residue.
All changes here are to alanine.
The median of three replicates is given.
Input reads are the counts in the merged round-one pool, before selection.

Q12A (input reads 355) gave -3.13.
D14A (input reads 7040) gave -0.63.
R15A (input reads 355) gave -1.60.
M16A (input reads 669) gave -2.30.
R19A (input reads 178) gave -0.43.
T20A (input reads 56) gave 1.15.
W21A (input reads 498) gave -2.38.
K22A (input reads 902) gave -1.82.
L24A (input reads 459) gave -3.89.
V25A (input reads 319) gave -2.45.
K26A (input reads 715) gave -1.42.
H28A (input reads 497) gave -1.91.
M29A (input reads 733) gave -1.56.
Y30A (input reads 236) gave 0.86.
V31A (input reads 537) gave -1.37.
S32A (input reads 253) gave -0.37.
G33A (input reads 22) gave -0.46.
K34A (input reads 47) gave 1.15.
R36A (input reads 58) gave 0.88.
G37A (input reads 101) gave -4.03.
F39A (input reads 212) gave -4.31.
Y40A (input reads 832) gave -3.05.
H42A (input reads 636) gave -0.81.
H43A (input reads 480) gave 1.54.
Y44A (input reads 997) gave -2.18.
E45A (input reads 653) gave 2.60.
S46A (input reads 627) gave -3.96.
P47A (input reads 512) gave -2.65.
P49A (input reads 460) gave -2.73.
R50A (input reads 716) gave -2.94.
V55A (input reads 35) gave -0.19.
P58A (input reads 493) gave -1.02.
L59A (input reads 109) gave 0.89.
D61A (input reads 266) gave -3.84.
V65A (input reads 770) gave -2.97.
T68A (input reads 861) gave -2.06.
Y69A (input reads 597) gave -2.96.
W70A (input reads 479) gave -1.61.
G71A (input reads 118) gave -1.92.
H73A (input reads 35) gave -2.48.
G75A (input reads 997) gave -2.20.
E76A (input reads 234) gave -2.43.
R77A (input reads 68) gave 0.87.
H80A (input reads 364) gave -3.47.
G82A (input reads 807) gave -0.82.
V85A (input reads 392) gave -2.58.
S86A (input reads 40) gave 1.85.
E88A (input reads 45) gave 2.34.
R90A (input reads 296) gave -2.87.
K91A (input reads 443) gave -2.35.
T96A (input reads 625) gave -3.81.
V98A (input reads 329) gave -3.39.
P100A (input reads 99) gave -0.05.
E101A (input reads 528) gave -2.11.
L102A (input reads 438) gave -2.97.
D104A (input reads 268) gave -2.63.
L106A (input reads 1353) gave 1.37.
I107A (input reads 20) gave 0.99.
H108A (input reads 57) gave -2.88.
Y111A (input reads 168) gave -2.40.
F112A (input reads 39) gave 1.52.
D113A (input reads 887) gave -0.85.
F115A (input reads 1073) gave -0.62.

The opening 5 entries, copied out:

| substitution | input reads | median score |
|---|---|---|
| Q12A | 355 | -3.13 |
| D14A | 7040 | -0.63 |
| R15A | 355 | -1.60 |
| M16A | 669 | -2.30 |
| R19A | 178 | -0.43 |

Replicates agree only moderately (rank correlation about 0.4-0.65); scores from under about 50 input reads tend to be too high.
Not every substitution is listed.
Positive scores are uncertain; some enriched variants did not exclude APOBEC3G in a separate test.

Reference: Langley et al. 2025, preprint, doi:10.1101/2025.10.20.683452.